A mixed list of measured activities; the numbers were collected in NIAID ChemDB.

Common to all: tests in culture; agent: Mycobacterium tuberculosis

ECn is the concentration giving n% inhibition of infection, replication or growth. MIC bound: limit read from a one-dose screen. Inhibition is in % at the dose shown (toxicity tests: loss of growth or viability). Lines come from different laboratories, so protocols vary. An empty or dashed field is not shown. Two numbers with a dash give a range or band.

structure,strain or isolate,method,dose,conditions,measure,mutations,result
O=C(O)c1ccc([N+](=O)[O-])cc1Cl,H37Rv,BACTEC,-,-,MIC bound,-,>12.5 µg/mL
CCCCCCCCCN1C(=O)CC(C)C1=O,Clinical isolate (isoniazid-resistant),-,-,-,MIC,-,≤20 µg/mL
NNC(=O)c1ccncc1,MDR-22 (MDR),-,-,-,MIC,-,3.2 µg/mL
COc1ccc(C2CC(=O)c3cc(C(=O)O)ccc3O2)cc1,H37Rv,-,12.5 µg/mL,-,inhibition,-,2%
COc1ccc(CCC2CCc3ccccc3N2C)cc1OC,MT7,-,-,-,MIC,-,80 µg/mL
CC(=O)NC1=NN(C(C)=O)C2(S1)C(=O)N(C)c1ccc(F)cc12,18b,resazurin,-,-,MIC,-,4 µg/mL
CO[C@H]1/C=C/O[C@@]2(C)Oc3c(C)c(O)c4c(O)c(c5c(c4c3C2=O)NC2(CCN(CC(C)C)CC2)N=5)=NC(=O)/C(C)=C\C=C\[C@H](C)[C@H](O)[C@@H](C)[C@@H](O)[C@@H](C)[C@H](OC(C)=O)[C@@H]1C,Strain 123-134 (S531L/F),-,-,-,MIC,-,24 µg/mL
COc1ccc(NC(=O)OCCN2CCOCC2)cc1,My 331/88,-,-,-,MIC,-,1000 µM
NC1=NC(c2cc(F)cc(F)c2)n2c(nc3ccccc32)N1,18b,resazurin,-,-,MIC,-,8 µg/mL
COc1ccc(OC)c(CCNCCNCc2ccc(OC)c(OC)c2)c1,-,-,-,-,MIC,-,6.25 µM
CCOC(=O)c1nc(SC)sc1NC(=O)c1ccc(OC)cc1,H37Rv,BACTEC,-,-,MIC bound,-,>12.5 µg/mL
Cc1ccc2oc(=S)n(-c3ccc(Cl)cc3)c(=S)c2c1,My 331/88,-,-,21 d,MIC,-,1 µM
CCCC1SCC(=O)N1c1nncs1,H37Rv,BACTEC,-,-,MIC bound,-,>12.5 µg/mL
CO[C@H]1/C=C/O[C@@]2(C)Oc3c(C)c(O)c4c(O)c(c(/C=N/N5CCN(C/C=C/c6ccccc6)CC5)c(O)c4c3C2=O)NC(=O)/C(C)=C\C=C\[C@H](C)[C@H](O)[C@@H](C)[C@@H](O)[C@@H](C)[C@H](OC(C)=O)[C@@H]1C,2218 (MDR),-,-,-,MIC,-,0.5 µg/mL
COc1ccc(C2Oc3ccc(Br)cc3C(=O)C2O)cc1,H37Rv,-,-,-,EC50,-,>12.5 µg/mL
O=Cc1cc2c(Cl)nccc2o1,H37Rv,BACTEC,12.5 µg/mL,-,inhibition,-,57%
O=C(/C=C/c1ccco1)c1ccc(Br)cc1O,-,-,12.5 µg/mL,-,inhibition,-,17%
CC(=O)Nn1c(N)nc2ccccc21,H37Rv,BACTEC,-,-,MIC bound,-,>12.5 µg/mL
COC(=O)C1=NOC2(CC(=O)N(c3ccc(F)cc3)C2=O)C1,Clinical isolate,resazurin,-,-,MIC,-,16 µg/mL
COc1ccc(OC)c(CCNCCNC23CC4CC(CC2C4)C3)c1,-,-,-,-,MIC,-,25 µM
CC[C@@H](CO)NCCN[C@@H](CC)CO,CDC1551,broth dilution,-,-,MIC,-,8 µg/mL
Cc1noc(NS(=O)(=O)c2ccc(N=Nc3ccc(O)cn3)cc2)c1C,H37Rv,BACTEC,12.5 µg/mL,-,inhibition,-,0%
C[C@@H]1[C@@H](NCCNCCCCc2ccccc2)C[C@H]2C[C@@H]1C2(C)C,-,-,-,-,MIC,-,50 µM
CO[C@H]1/C=C/O[C@@]2(C)Oc3c(C)c(O)c4c(O)c(c(/C=N/N5CCN(C)CC5)c(O)c4c3C2=O)NC(=O)/C(C)=C\C=C\[C@H](C)[C@H](O)[C@@H](C)[C@@H](O)[C@@H](C)[C@H](OC(C)=O)[C@@H]1C,PR118,-,-,-,MIC,-,0.31 µg/mL
CC(=O)N[C@H]1[C@@H](O[C@@H]2O[C@H](C[C@@H](O)[C@H]3O[C@@H](n4ccc(=O)[nH]c4=O)[C@H](O)[C@@H]3O)[C@H](O)[C@H](O)[C@H]2NC(=O)/C=C/CC(C)C)O[C@H](CO)[C@@H](O)[C@@H]1O,KM-R,-,-,-,MIC,-,1.6 µg/mL
CCCCCCCCN1C(=O)CC(C)C1=O,H37Rv,-,-,-,MIC,-,≤20 µg/mL
OC(c1ccccc1)c1c(-c2ccccc2)oc(-c2ccccc2)c1C(O)c1ccccc1,H37Rv,BACTEC,12.5 µg/mL,-,inhibition,-,-26%
Fc1ccc2oc(=S)n(-c3ccccc3)c(=S)c2c1,My 331/88,-,-,21 d,MIC,-,4 µM
CN1C(=O)c2ccccc2N(C)C(=O)c2ccccc21,H37Rv,BACTEC,12.5 µg/mL,-,inhibition,-,-10%
CCCCCCCCCCCNCCNC1CCCCCCC1,-,-,-,-,MIC,-,12.5 µM
Clc1ccc(N2CCN(c3ccccc3Cl)CC2)nn1,Clinical isolate,resazurin,-,-,MIC,-,16 µg/mL
CCCOc1ccccc1NC(=O)OCCN1CCOCC1,My 331/88,-,-,-,MIC,-,1000 µM
NNC(=O)c1ccncc1,AZD5847-resistant 8.10,-,-,-,MIC,G2270T,0.06 µg/mL
O=C(/C=C/c1ccccc1)c1cc(I)ccc1O,H37Rv,-,-,-,EC50,-,~12.5 µg/mL
Cc1ccc(CNS(=O)(=O)c2ccc(-c3n[nH]c(C)c3C)o2)o1,18b,resazurin,-,-,MIC,-,8 µg/mL
O=c1oc2ccc(Br)cc2c(=S)n1-c1ccc(Br)cc1,My 331/88,-,-,21 d,MIC,-,2 µM
NNC(=O)c1ccncc1,Clinical isolate 9139,broth dilution,-,-,MIC,Isoniazid-resistant,≤10 µM
COc1ccccc1NC(=O)OCCN1CCCCC1,My 331/88,-,-,-,MIC,-,>1000 µM
O=C(NCc1ccccc1)C1C(=O)N(Cc2ccccc2)C(=O)/C1=N\O,H37Rv,resazurin,-,-,MIC bound,-,>6.25 µg/mL
COc1ccc2c(c1)OC(c1ccc(Cl)cc1)CC2=O,-,-,-,-,EC50,-,>12.5 µg/mL
CCCCCOc1cccc(NC(=O)OCCN2CCCCC2)c1,My 331/88,-,-,-,MIC,-,16 µM
CO[C@H]1/C=C/O[C@@]2(C)Oc3c(C)c(O)c4c(O)c(c(/C=N/N5CCN(C/C=C/c6ccccc6)CC5)c(O)c4c3C2=O)NC(=O)/C(C)=C\C=C\[C@H](C)[C@H](O)[C@@H](C)[C@@H](O)[C@@H](C)[C@H](OC(C)=O)[C@@H]1C,9 (rifampin-resistant),-,-,-,MIC,-,0.05 µg/mL
O=C1CC(c2ccccc2)Oc2ccc(Cl)cc21,-,-,12.5 µg/mL,-,inhibition,-,30%
COCN1C(=O)N2C(c3ccccc3)(c3ccccc3)C(C(=O)OC)=C(C(=O)OC)P12(c1ccccc1)c1ccccc1,H37Rv,BACTEC,-,-,MIC bound,-,>12.5 µg/mL
CCCCCCOc1ccccc1NC(=O)OCCN1CCOCC1,My 331/88,-,-,-,MIC,-,62.5 µM
O=C(/C=C/c1ccccc1)c1cc(Cl)ccc1O,H37Rv,-,-,-,EC50,-,<12.5 µg/mL
Cc1cccc(-n2nc([N+](=O)[O-])c(=Nc3ccc(C)cc3C)n2O)c1,Clinical isolate,resazurin,-,-,MIC,-,8 µg/mL
NNC(=O)c1ccncc1,Strain 158,-,-,-,MIC,-,0.06 µg/mL
Cc1ccc(N=Nc2c(S(=O)(=O)[O-])cc3cc(NC(=O)Nc4ccc5c(O)c(N=Nc6ccc7cc(S(=O)(=O)[O-])ccc7c6)c(S(=O)(=O)[O-])cc5c4)ccc3c2O)cc1.[Na+].[Na+].[Na+],H37Rv,BACTEC,-,-,MIC bound,-,>12.5 µg/mL
Cc1ccc(-n2c(=S)oc3ccc(C)cc3c2=S)cc1,My 331/88,-,-,21 d,MIC,-,1 µM
COc1ccc(/C=C/C(=O)c2ccc([N+](=O)[O-])cc2)cc1,-,-,-,-,EC50,-,<12.5 µg/mL
C=C(NC(=O)c1csc(-c2nc3c(cc2O)-c2nc(cs2)C(=O)N[C@@H]([C@@H](C)O)C(=O)N/C(=C(\C)OC)c2nc(cs2)C(=O)N[C@@H]2c4nc(cs4)C(=O)N[C@@H](COC(=O)c4c5c6c(cccc6n4O)COC(=O)[C@@H](O[C@H]4C[C@](C)(O)[C@H](N(C)C)[C@H](C)O4)[C@H]2OC5)c2nc-3cs2)n1)C(N)=O,Clinical isolate 7791,broth dilution,-,-,MIC,Isoniazid-resistant,≤2.5 µM
CCCCCCCCCN1C(=O)CC(C)(SCCO)C1=O,H37Rv,-,-,-,MIC,-,≤20 µg/mL
CC[C@H]1OC(=O)[C@H](C)[C@@H](O[C@H]2C[C@@](C)(OC)[C@@H](O)[C@H](C)O2)[C@H](C)[C@@H](O[C@@H]2O[C@H](C)C[C@H](N(C)C)[C@H]2O)[C@](C)(OC)C[C@@H](C)C(=O)[C@H](C)[C@@H](O)[C@]1(C)O,S-6M (susceptible),-,-,-,MIC,-,>8 µg/mL
Nc1cc(Cl)c(Cl)cc1S(=O)(=O)O,-,resazurin,-,-,MIC bound,-,>6.25 µg/mL
NC(=O)c1cnccn1,Isolate K10452,-,-,-,MIC,-,>500 µg/mL
CO/C(C)=C1/NC(=O)[C@H]([C@@H](C)O)NC(=O)c2csc(n2)-c2cc(O)c(-c3nc(C(=O)NCCc4c[nH]cn4)cs3)nc2-c2csc(n2)[C@@H]2COC(=O)c3c4c5c(cccc5n3O)COC(=O)[C@@H](O[C@H]3C[C@](C)(O)[C@H](N(C)C)[C@H](C)O3)[C@@H](OC4)[C@H](NC(=O)c3csc1n3)c1nc(cs1)C(=O)N2,H37Rv,broth dilution,-,-,MIC,-,10–100 µg/mL
O=C(O)c1cc(N=C2C=CC(=C(c3ccccc3)c3ccc(Nc4ccc(Cl)c(C(=O)O)c4)cc3)C=C2)ccc1Cl,H37Rv,BACTEC,12.5 µg/mL,-,inhibition,-,0%
COc1c(N2CCNC(C)C2)c(F)cc2c(=O)c(C(=O)O)cn(C3CC3)c12,Strain 370,-,-,-,MIC,-,0.25 µg/mL
COc1cc(/C=C2\N=C(c3ccccc3)OC2=O)cc(OC)c1OC,H37Rv,BACTEC,-,-,MIC bound,-,>12.5 µg/mL
CN1c2ccccc2CCC1CCc1ccc2c(c1)OCO2,MT8,-,-,-,MIC,-,50 µg/mL
CO[C@H]1/C=C/O[C@@]2(C)Oc3c(C)c(O)c4c(=O)c(c5oc6cc(N7CCN(CC(C)C)CC7)cc(=O)c6nc5c4c3=C2O)NC(=O)/C(C)=C\C=C\[C@H](C)[C@H](O)[C@@H](C)[C@@H](O)[C@@H](C)[C@H](OC(C)=O)[C@@H]1C,3125 (rifampin-sensitive),-,-,-,MBC,-,0.025 µg/mL
C=C(NC(=O)C(C)NC(=O)OCc1ccccc1)C(=O)N1CCCC1C(=O)NC(C)C(=O)NC,H37Rv,BACTEC,12.5 µg/mL,-,inhibition,-,6%
CO[C@H]1/C=C/O[C@@]2(C)Oc3c(C)c(O)c4c(O)c(c(/C=N/N5CCN(C)CC5)c(O)c4c3C2=O)NC(=O)/C(C)=C\C=C\[C@H](C)[C@H](O)[C@@H](C)[C@@H](O)[C@@H](C)[C@H](OC(C)=O)[C@@H]1C,Clinical isolate 18343,broth dilution,-,-,MIC,Isoniazid- and moxifloxacin-resistant,≤0.1 µM
C[C@H]1COc2c(N3CCN(C)CC3)c(F)cc3c(=O)c(C(=O)O)cn1c23,H37RV (DRUG-SUS),-,-,-,MBC,-,2 µg/mL
COc1ccc2c(c1OC(C)=O)-c1cc(OC(C)=O)cc3c1C(C2)NCC3.Cl,H37Rv,BACTEC,-,-,MIC bound,-,>12.5 µg/mL
O=C([C@@H](O)CO)N1CC=C(c2c(F)cc(N3C[C@H](COc4ccon4)OC3=O)cc2F)CC1,H37Rv CDC1551,broth dilution,-,-,MIC,-,0.5 µg/mL
C=CC(C)(C)c1c2c(c(O)c3c(=O)c4ccc(O)c(O)c4oc13)C=CC(C)(C)O2,H37Rv,BACTEC,-,-,MIC bound,-,>12.8 µg/mL
O=C(CN1C(=O)CCC1=O)Nc1ccc(N2CCCCC2)cc1,Clinical isolate (isoniazid-resistant),-,-,-,MIC,-,≤20 µg/mL
COC(=O)C1=CO[C@@H](C)[C@H]2C[n+]3ccc4c([nH]c5ccccc54)c3C[C@H]12,H37Rv,BACTEC,-,-,MIC bound,-,>128 µg/mL
CO[C@H]1/C=C/O[C@@]2(C)Oc3c(C)c(O)c4c(O)c(c(/C=N/N5CCN(C6CCCC6)CC5)c(O)c4c3C2=O)NC(=O)/C(C)=C\C=C\[C@H](C)[C@H](O)[C@@H](C)[C@@H](O)[C@@H](C)[C@H](O)[C@@H]1C,Isolate 920492 rifampicin-resistant,-,-,-,MIC,-,>32 µg/mL
CCN(CC)CCNc1cccc2sc3ccccc3c(=O)c12,H37Rv,BACTEC,-,-,MIC,-,12.5 µg/mL
CO/C(C)=C1/NC(=O)[C@H]([C@@H](C)O)NC(=O)c2csc(n2)-c2cc(O)c(-c3nc(C(=O)NCCCN4CCOCC4)cs3)nc2-c2csc(n2)[C@@H]2COC(=O)c3c4c5c(cccc5n3O)COC(=O)[C@@H](O[C@H]3C[C@](C)(O)[C@H](N(C)C)[C@H](C)O3)[C@@H](OC4)[C@H](NC(=O)c3csc1n3)c1nc(cs1)C(=O)N2,Clinical isolate 565,broth dilution,-,-,MIC,Rifampicin- and isoniazid-resistant,≤25 µM

For reference, 5 entries again:

COc1ccc2c(c1)OC(c1ccc(Cl)cc1)CC2=O ; measure: EC50 ; result: >12.5 µg/mL
CO[C@H]1/C=C/O[C@@]2(C)Oc3c(C)c(O)c4c(O)c(c(/C=N/N5CCN(C)CC5)c(O)c4c3C2=O)NC(=O)/C(C)=C\C=C\[C@H](C)[C@H](O)[C@@H](C)[C@@H](O)[C@@H](C)[C@H](OC(C)=O)[C@@H]1C ; strain or isolate: Clinical isolate 18343 ; method: broth dilution ; measure: MIC ; mutations: Isoniazid- and moxifloxacin-resistant ; result: ≤0.1 µM
CCCCCCCCN1C(=O)CC(C)C1=O ; strain or isolate: H37Rv ; measure: MIC ; result: ≤20 µg/mL
COc1ccc(OC)c(CCNCCNC23CC4CC(CC2C4)C3)c1 ; measure: MIC ; result: 25 µM
CCN(CC)CCNc1cccc2sc3ccccc3c(=O)c12 ; strain or isolate: H37Rv ; method: BACTEC ; measure: MIC ; result: 12.5 µg/mL